Test results published in US20250276998A1, “NOVEL DAROBACTIN DERIVATIVES” (Helmholtz-Zentrum Fur Infektionsforschung GmbH, priority 2021, published 2025).

Experiment: LC-MS AUC of mass peak of derivative in crude extract relative to D9
Settings: relative amount of derivative vs D9

Row | SMILES | AUC ratio (derivative/D9)
1 | C[C@@H]1NC(=O)[C@H]2NC(=O)[C@H](CC(N)=O)NC(=O)[C@@H](N)Cc3c[nH]c4c(cccc34)O[C@@H]2c2c[nH]c3cc(ccc23)[C@H](CCCN)[C@@H](C(=O)N[C@@H](CO)C(=O)N[C@@H](Cc2c[nH]c3ccccc23)C(=O)O)NC1=O [Darobactin 30] | 0.29
2 | C[C@@H](O)[C@@H]1NC(=O)[C@H]2NC(=O)[C@H](CC(N)=O)NC(=O)[C@@H](N)Cc3c[nH]c4c(cccc34)O[C@@H]2c2c[nH]c3cc(ccc23)C(CCNC(=N)N)[C@@H](C(=O)N[C@@H](CCCNC(=N)N)C(=O)N[C@@H](Cc2c[nH]c3ccccc23)C(=O)O)NC1=O (some centres unmarked) [Darobactin 39] | 0.52x
